Source: publication PMC11873239, “A covalent chemical probe for Chikungunya nsP2 cysteine protease with antialphaviral activity and proteome-wide selectivity” (Scientific Reports, 2025)

Tested on: CHIKV nsP2
Experiment: TAMRA labelling of purified or lysate-spiked nsP2
Assay type: binding, Chikungunya virus
Details: for TAMRA labelling of nsP2: purified nsP2 or nsP2 (4 µg) spiked in HEK293 lysate, 10 µM (VSS 10 or 100 µM)

Compound	TAMRA labelling of nsP2	TAMRA labelling of nsP2 by VS after preincubation with the compound (10 µM, 30 min preincubation, HEK293 lysate plus nsP2)
CN(C)c1ccc2c(-c3cc(C(=O)NCCCCCCn4cc(COc5ccccc5-c5cc(C(=O)NC/C=C/S(C)(=O)=O)on5)nn4)ccc3C(=O)O)c3ccc(=[N+](C)C)cc-3oc2c1 [TVS, (E)-N-(9-(2-carboxy-4-((6-(4-((2-(5-((3-(methylsulfonyl)allyl)carbamoyl)isoxazol-3-yl)phenoxy)meth-yl)−1H-1,2,3-triazol-1-yl)hexyl)carbamoyl)phenyl)−6-(dimethylamino)−3H-xanthen-3-ylidene)-N-methyl methanaminium]	efficient labelling	
C#CCOc1ccccc1-c1cc(C(=O)NC/C=C/S(C)(=O)=O)on1 [VS, (E)-N-(3-(methylsulfonyl)allyl)−3-(2-(prop-2-yn-1-yloxy)phenyl)isoxazole-5-carboxamide]	efficient TAMRA labeling of nsP2	
CS(=O)(=O)/C=C/CNC(=O)c1cc(-c2ccccc2)no1 [VSC, (E)-N-(3-(methylsulfonyl)allyl)−3-phenylisoxazole-5-carboxamide]		no TAMRA labelling of nsP2 was observed
C#CCOc1ccc(-c2cc(NC(=O)CCl)n[nH]2)cc1 [CA, reference compound]	labeled	
